In ChEMBL document CHEMBL1255439 (2010):
The source made the active and inactive calls.

Assays:
[1] = tested on: Burkholderia pseudomallei; assay: Antibacterial activity against Burkholderia pseudomallei 1026b infected in BALB/c mouse assessed as decrease in bacterial burden in lung at 25 mg/kg, ip administered 6 hrs postinfection at 12 hrs interval for 3 days measured after 48 hrs of bacterial infection in presence of 20 uL …
[2] = tested on: Burkholderia pseudomallei; assay: Antibacterial activity against Burkholderia pseudomallei 1026b infected in BALB/c mouse assessed as decrease in bacterial burden in liver at 25 mg/kg, ip administered 6 hrs postinfection at 12 hrs interval for 3 days measured after 48 hrs of bacterial infection in presence of 20 uL …
[3] = tested on: Burkholderia pseudomallei; assay: Antibacterial activity against Burkholderia pseudomallei 1026b infected in BALB/c mouse assessed as decrease in bacterial burden in spleen at 25 mg/kg, ip administered 6 hrs postinfection at 12 hrs interval for 3 days measured after 48 hrs of bacterial infection in presence of 20 uL …
[4] = tested on: Burkholderia pseudomallei; assay: Antibacterial activity against Burkholderia pseudomallei 1026b infected in BALB/c mouse assessed as increase in survival rate at 25 mg/kg, ip administered 6 hrs postinfection at 12 hrs interval for 3 days measured on day 60 in presence of IFN-gamma-harboring cationic liposome-DNA complex
[5] = tested on: Burkholderia pseudomallei; assay: Antibacterial activity against Burkholderia pseudomallei 1026b infected in BALB/c mouse assessed as increase in survival rate at 25 mg/kg, ip administered 6 hrs postinfection at 12 hrs interval for 3 days measured on day 20 in presence of IFN-gamma-harboring cationic liposome-DNA complex

CC(C)(O/N=C(\C(=O)N[C@@H]1C(=O)N2C(C(=O)[O-])=C(C[n+]3ccccc3)CS[C@H]12)c1csc(N)n1)C(=O)O [CEFTAZIDIME]
active: inhibition [1] | inhibition [2] | inhibition [3] | Activity [4] | Activity [5]
